Assay results from PubChem BioAssay AID720580 (National Center for Advancing Translational Sciences (NCATS), 2013).
The entries are a selection whose mix differs from that of the whole data set. Results filed as inconclusive are left out. Active and inactive are the calls of the source. Calls come from the whole dose curve; tested in A549 cells.

test: qHTS for Stage-Specific Inhibitors of Vaccinia Orthopoxvirus: Venus Reporter Primary qHTS; details: Vaccinia virus Venus reporter expression, fluorescence; at 36.5 µM (top of the series); note: nearly all actives have a fitted effect of over 30% in size
% is set by controls: 0 for no effect and ±100 for the full control effect.

| Structure (SMILES) | activity change, negative = inhibition |
| --- | --- |
| CCC(c1nnnn1C(C)(C)C)N1CCC(n2c(=O)[nH]c3ccccc32)CC1 (stereo unspecified) | inactive: -8.6% |
| CCCCn1nnnc1C(c1ccnc2ccccc12)N1CCC(n2c(=O)[nH]c3ccccc32)CC1 (stereo unspecified) | inactive: -9.49% |
| CCCCn1nnnc1C(c1ccccc1OC(F)(F)F)N1CCC(n2c(=O)[nH]c3ccccc32)CC1 (stereo unspecified) | inactive: -15.5% |
| CC(C)c1ccc(NC2CCN(C(=O)OC(C)(C)C)CC2)cc1 | inactive: -13.6% |
| CN(C)c1cccc(C(=O)NCC2(N3CCCCC3)CCCCC2)c1 | inactive: -10.2% |
| O=[N+]([O-])c1cc([N+](=O)[O-])c(OC2CCCCC2O)c([N+](=O)[O-])c1 (stereo unspecified) | inactive: -3.69% |
| COc1ccc(CN(CCCl)CCCl)cc1Cl | inactive: -5.74% |
| O=C(NCC1(N2CCOCC2)CCCCC1)c1cc(=O)[nH]c2ccccc12 | inactive: -15.4% |
| COc1cc(C(=O)NCC2(N3CCCCC3)CCCCC2)ccc1OC(F)F | inactive: 0.797% |
| CC(C)c1ccc(C(=O)NCC2(N3CCOCC3)CCCCC2)cc1 | inactive: -12.1% |
| CN1CCN(CCOC(=O)C(O)(c2ccccc2)c2ccccc2)CC1 | inactive: 0.23% |
| CCCCn1nnnc1C(c1cccc2ccccc12)N1CCC(n2c(=O)[nH]c3ccccc32)CC1 (stereo unspecified) | inactive: -14.2% |
| O=[N+]([O-])c1cc([N+](=O)[O-])c(NCC2CCS(=O)(=O)C2)c([N+](=O)[O-])c1 (stereo unspecified) | inactive: -28.2% |
| O=C(NCC1(N2CCCCC2)CCCCC1)c1cccc(C(F)(F)F)c1 | inactive: 0% |
| CCCOc1cccc(C(=O)NCC2(N3CCOCC3)CCCCC2)c1 | inactive: -8.28% |
| O=c1[nH]c2ccccc2n1C1CCN(C(c2ccccc2OC(F)(F)F)c2nnnn2C2CCCC2)CC1 (stereo unspecified) | inactive: -7.56% |
| N#CC1(Nc2ccccc2)CCN(CCc2ccccc2)CC1 | inactive: -6.9% |
| CCOc1ccc(C(=O)NCC2(N3CCOCC3)CCCCC2)cc1 | inactive: 4.49% |
| CSc1ccc(C(=O)NCC2(N3CCOCC3)CCCCC2)cc1 | inactive: -12.8% |
| O=C(NCC1(N2CCCCC2)CCCCC1)c1ccc(OC(F)F)cc1 | inactive: -3.61% |
| CC(C)(C)n1nnnc1C(c1ccccc1OC(F)(F)F)N1CCC(n2c(=O)[nH]c3ccccc32)CC1 (stereo unspecified) | inactive: -17.7% |
